{"source": "ChEMBL document CHEMBL2321848", "about": "“Optimization of benzyloxazoles as non-nucleoside inhibitors of HIV-1 reverse transcriptase to enhance Y181C potency” (Bioorg Med Chem Lett, 2013)", "test_system": "MT2", "test": "Cytotoxicity in human MT2 cells assessed as inhibition of cell growth", "assay_type": "cell-based"}
{"smiles": "N#Cc1ccc(Nc2ncc(Cc3c(F)cccc3F)o2)cc1Cl", "values": [{"measurement": "CC50", "result": 10, "unit": "µM"}]}
